PubChem BioAssay AID1259414 | Drosophila RNAi Screening Center | 2018
The screen tested about 24,000 reagents; this is an unselected part of those that have a named target and a result. Over the whole deposit, about 1,210 (5%) got an active call. 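Inactive calls also include excluded dsRNAs with several or no targets, genes unexpressed in JW18, and well A1, regardless of score.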 Unmarked entries are inactive. Reagents against one gene are numbered here.

Test: 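Genome-wide screen for host control of endosymbiont load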 (primary screen)
System: Drosophila JW18 cells infected with Wolbachia
Reagents: long dsRNA against Drosophila genes, 0.25 µg dsRNA per well of a 384-well plate
Timing: 5 days
Conditions: cells persistently infected with Wolbachia before knock-down; no added drug
Measured: 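Automated imaging of bacterial rRNA staining divided by host cell count, reported as plate-normalised robust z-score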
Scale: Wolbachia per cell robust z: higher = more Wolbachia per host cell than the plate typical
Active means: 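Active if absolute robust z reaches 1.5 in two or more of three replicates, leaving out multi- or no-target dsRNAs, genes unexpressed in JW18 and A1 wells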

Silencing of eEF1alpha2 #1 came out at: Wolbachia per cell robust z, rep 1 = -7.37; Wolbachia per cell robust z, rep 2 = 1.27; Wolbachia per cell robust z, rep 3 = 0.48.
Silencing of eEF1alpha2 #2 resulted in: Wolbachia per cell robust z, rep 1 = 0.57; Wolbachia per cell robust z, rep 2 = 0.0329; Wolbachia per cell robust z, rep 3 = 0.101.
With knock-down of CG15019, the screen gave Wolbachia per cell robust z, rep 1 = -0.952; Wolbachia per cell robust z, rep 2 = -1.38; Wolbachia per cell robust z, rep 3 = -0.386.
alpha-Est3 scored Wolbachia per cell robust z, rep 1 = -0.425; Wolbachia per cell robust z, rep 2 = 0.545; Wolbachia per cell robust z, rep 3 = -0.157.
With knock-down of CG5697 the results were Wolbachia per cell robust z, rep 1 = 0.729; Wolbachia per cell robust z, rep 2 = 0.25; Wolbachia per cell robust z, rep 3 = -0.589.

Entries above whose gene name starts with C or c (2):
CG15019 | Wolbachia per cell robust z, rep 1: -0.952; Wolbachia per cell robust z, rep 2: -1.38; Wolbachia per cell robust z, rep 3: -0.386
CG5697 | Wolbachia per cell robust z, rep 1: 0.729; Wolbachia per cell robust z, rep 2: 0.25; Wolbachia per cell robust z, rep 3: -0.589

Further results follow.
For Dop1R1 #1, the values are Wolbachia per cell robust z, rep 1 = -0.627; Wolbachia per cell robust z, rep 2 = -0.763; Wolbachia per cell robust z, rep 3 = -8.98.
Knock-down of Dop1R1 #2 came out at: Wolbachia per cell robust z, rep 1 = 0.939; Wolbachia per cell robust z, rep 2 = 0.25; Wolbachia per cell robust z, rep 3 = 0.264.
Depletion of Dop1R1 #3 came out at: Wolbachia per cell robust z, rep 1 = 0.283; Wolbachia per cell robust z, rep 2 = 0.226; Wolbachia per cell robust z, rep 3 = 0.257.
Depletion of trn gave: Wolbachia per cell robust z, rep 1 = -0.202; Wolbachia per cell robust z, rep 2 = 0.73; Wolbachia per cell robust z, rep 3 = -0.192.
After knock-down of Rsph9 #1, the screen gave Wolbachia per cell robust z, rep 1 = 0.54; Wolbachia per cell robust z, rep 2 = 0.41; Wolbachia per cell robust z, rep 3 = 0.286.
Knock-down of Rsph9 #2 came out at: Wolbachia per cell robust z, rep 1 = -1.24; Wolbachia per cell robust z, rep 2 = 0.467; Wolbachia per cell robust z, rep 3 = -0.0107.
After knock-down of CG9853 #1 the results were Wolbachia per cell robust z, rep 1 = 0.803; Wolbachia per cell robust z, rep 2 = 0.399; Wolbachia per cell robust z, rep 3 = 0.189.
CG9853 #2 gave Wolbachia per cell robust z, rep 1 = -2.26; Wolbachia per cell robust z, rep 2 = -0.499; Wolbachia per cell robust z, rep 3 = 0.0584.
CG9853 #3 scored Wolbachia per cell robust z, rep 1 = 1.48; Wolbachia per cell robust z, rep 2 = 1.14; Wolbachia per cell robust z, rep 3 = -0.086.
